This note sets out measurements from the supplement of paper PMC9931576.

B1: BD55-6449 (protein)
chain 1: QAHLVQSGAEVKKPGASVKVSCKTSGYTFANYGVNWLRQAPGQGLEWMGWISTYNGNTNYAHNFQGRLTLTTDTSTATASMELRSLSSNDTAIYFCARDANSDGTGYHYRGGPFNWFDPWGQGTLVTVSS
chain 2: QSVLTQPPSASGTPGQRVTISCSGSISNIGSNYVHWYQQLPGAAPKLLIYKNNQRPSGVPDRFSGSKSGTSASLAISGLRSEDEADYYCAAWEDSPSGPWVFGGGTKVTVL
B2: BD55-6445 (protein)
chain 1: QEQLVESGGGLVKPGGSLRLSCAASGFTFSDYYMSWVRQAPGKGLEWVSYISRGVPYTNYADSVKGRFTISRDDAKNSLYLQMNNLRVEDTGVYYCARDRNWNYEDAFDIWGQGTMVTVSS
chain 2: IQMTQSPSSLSASVGDRVTITCRASLSISSYVNWYQQKPGKAPKLLIYGASNLQSGVPSRFSGSGSGTDFTLTISSLQPEDFATYYCQQSYTTPLFTFGPGTKVDIK
B3: BD55-6453 (protein)
chain 1: QVQLVQSGAEVKKPGASVKVSCKASGYTFTGYDINWVRQTTGQGLEWMGWMNPNSGDTGYAPKFQGRVTMTRNTSINTAYMELSSLTSEDTAVYYCARDGGGYYYGSGSHWGQGTLVTVSS
chain 2: DIQMTQSPSSLSASVGDRVTITCRASQTISYYLNWYQQKPGKAPKLLIFAASNLQGGVPPRFSGSGSGTDFTLTISGLQPEDFATYYCQQSYSTPYNFGQGTKLEI
B4: BD55-6446 (protein)
chain 1: QVQLVQSGAEVKKPGASVKVSCEASGYTFTDSFMHWVRQAPGQGLEWMAYIDPNEGVTNYAQKFQGRVTLTRDTSIRTAYMELSRLRSDDTAIYYCAREYYDFSTGYSRFDFWGRGTLVTVSS
chain 2: DIQMTQSPSSLSASVGDRVTITCRASQSISNYLNWYQQTPGKAPTLLIYAASSLQSGVPSRFSGSGSGTDFTLTISSLQPEDFATYYCQQSYTSFPKTFGPGTKVYIK
B5: BD55-6432 (protein)
chain 1: QVQLVESGGGVVQPGRSLRLSCAASGFPFDNYAINWVRQAPGKGLEWVALISYDGSNKYYAESVKGRLTISRDNSKNLLYLEMNTLRAEDTAVYYCARGGLFGDFSSYHYYGLDAWGQGTTVTVSS
chain 2: QSVLTQAPSASGTPGQRVTISCSGGGSNVGSNYVFWYQHLPGTAPKLLIFRNNQRPSGVPDRFSGSRSGTSASLAISGLRSEDEADYYCAAWDDSLRAWVFGGGTMLTVL
B6: BD55-6427 (protein)
chain 1: QVQLVQSGAEVKKPGASVKVSCRTSGYTFSNYGISWVRQAPGQGLEYMGWISAYRGNTNYAQKFQGRLSMATDTSTTTAYMELRNLRSDDTAVYYCARGGAITMSVVPFYHFETWGQGTLVTVSS
chain 2: QSALIQPASVSGSPGQSITLSCTGTSDDIGSYNFVSWYQQHPGKAPKLIIYEGSKRPSGISDRFSGSKSGNTASLTISGLQAEDEADYYCCSYAGADTFYVLGTGTTVTVL
B7: BD55-6454 (protein)
chain 1: EVQLVQSGAEVKKPGESLKISCKGSGYSFSTYWIAWVRQMPGKSLEWMGIIYPGGSDTRYSPSFQGQVTISVDNSISTAYLQWGSLKASDTARYYCARHAGELRSIDWQNNGMDVWGQGTTVTVSS
chain 2: DIQLTQSPSSLSASVGDRVTITCRASQSISTYLHWYQQKPGKAPKLLIYAASTLQSGVPSRFSGSGSGTAFSLTINSLQPEDFATYYCQQSYTIPTWTFGQGTKVEIK
B8: BD55-6456 (protein)
chain 1: QVQLVESGGGVVQPGRSLRLSCAASGLTFRRYGMHWVRQAPGKGLEWVAVISYDEINRYYADSVKGRFAISRDNSKNTLYLQMNSLRPEDTAVYYCAKAGGPYCGGGNCYSGYFDYWGQGTLVTVSS
chain 2: DIQMTQSPSSLSASVGDRVTITCQASQDIRNYLNWYQQKPGKAPKLLIYDTSNLETGVPSRFSGSGSGTDFTFTISSLQPEDIAIYYCQQYDNVPITFGQGTRLDIK
B9: BD55-6447 (protein)
chain 1: QITLKESGPTLVKPTQTLTLTCTFYGFSLSTSGVGVGWIRQPPGKALEWLALIYWEDDKYYSPSLKNRLTITKDTSKDQVVLTMTNMDPVDTATYYCAHTMLFEYGDFDYWGQGTLVTVSS
chain 2: QSALTQPASVSGSPGQSITVSCSGITGDVGEYSYVSWYQQHPGKAPKLMIYDVSNRPSGVSNRFSGSKSGNTASLTISGLQAEDEAVYYCSSYKSSTTSRVFGGGTKLTVL
B10: BD55-6431 (protein)
chain 1: QEQLVQSGGGVVQPGRSLTLSCSASGFSFSNYAMNWVRQAPGKGLEWVAMISYEGSKKFYADSVKGRFIISRDNSKSTLSLQMIGLRDEDSAVYYCAKEGYYESGSSGYRFDPWGPGSLVTVSS
chain 2: DIQMTQSPSSLSASVGDRVTITCRASQSINTYLNWYQQKPGKAPKLLIHVASNLQNGVPSRFSGSGSGTEFTLTISSLQPEDLATYYCQQSHSIPRTFGQGTKVEI
B11: BD55-6429 (protein)
chain 1: QVQLVESGGGVVQPGRSLRLSCAASGFTFSAYDIHWVRQAPGKGLEWVAVISYDGAIKFYADSVKGRFTISRDNSKNMLYLQMNSLRAEDTAMYYCAKEQTYDALTGLYYFDYWGQGTLVTVSS
chain 2: DIQMTQSPSSLSASVGDRVTITCRASQSISRHLNWYQQKPGKAPKLLIYAASTLQSGVPSRFSGSGSGTDFTLTVSSLQPEDFATYYCQQSFSTPQITFGPGTKVDIK
B12: BD55-6433 (protein)
chain 1: EVQLEQSGAELKKPGESLKISCKGSGYTFTNYWIAWVRQMPGKGLEYMGVIYAGDSDTRYSPSFQGQVTISADKSISTVYLHWSSLGASDSAMYYCARLGHGYSYGYIDYWGQGTLITVSS
chain 2: DIVMTQSPDSLAVSLGERATINCKSSQSVLSTSINKNYLAWYQQKPSQPPKLLIYWASTREFGVPDRFSGSGSGTDFTLTISSLQAEDVAVYYCQQYYSTLWTFGQGTKVEIK

Human monoclonal antibodies against the spike receptor-binding domain (heavy:light variable regions). IC50 against pseudoviruses bearing the spike of naturally observed variants; lower = stronger; >10 µg/ml means not reached at the top dose. No active / inactive call. The stated detection limit is 0.0005 µg/ml; values near or below 0.001 µg/ml lie at the floor of the assay.

The first test concerns the target SARS-CoV-2 Omicron BA.1 spike pseudovirus. Briefly: pseudovirus neutralization IC50; higher = weaker neutralization. How it is done: (§1)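 Single-round VSV luciferase pseudovirus mixed with antibody dilutions for 1 h and put on Huh-7 cells for about a day; IC50 from the dose curve.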
Turning to B1, the “pseudovirus neutralization IC50” value came out at 6.55 µg/mL.
On the same count and under the same terms, next, B2: greater than 10 µg/mL; B3: greater than 10 µg/mL; B4: greater than 10 µg/mL.
The same measure, in the same setting: with B5 the figure was greater than 10 µg/mL.
With B6, the “pseudovirus neutralization IC50” value is greater than 10 µg/mL.
Still for that read-out and setting: next, B7: greater than 10 µg/mL.
On the same count and under the same terms, next, B8: greater than 10 µg/mL; B9: 3.14 µg/mL.
On the same count and under the same terms, next, B10: greater than 10 µg/mL; B11: greater than 10 µg/mL; B12: 1.26 µg/mL.

The next test deals with SARS-CoV-2 Omicron BA.2 spike pseudovirus. The test is described as above. On the procedure:
as §1
With B1, the “pseudovirus neutralization IC50” value was determined as 4.3 µg/mL.
The same measure, in the same setting: with B2 the figure was greater than 10 µg/mL; with B3, greater than 10 µg/mL; with B4, greater than 10 µg/mL.
Same read-out and setting: next, B5: greater than 10 µg/mL; B6: greater than 10 µg/mL; B7: greater than 10 µg/mL.
Same read-out and setting: next, B8: greater than 10 µg/mL; B9: greater than 10 µg/mL; B10: greater than 10 µg/mL.
As to B11, the “pseudovirus neutralization IC50” value was greater than 10 µg/mL.
Still for that read-out and setting: with B12 the figure was 1.03 µg/mL.

In the next test the target is SARS-CoV-2 Omicron BA.2.75 spike pseudovirus. The description is as above. On the procedure:
as §1
With B1, the “pseudovirus neutralization IC50” value was found to be 8.51 µg/mL.
As to B2, the “pseudovirus neutralization IC50” value was greater than 10 µg/mL.
Same read-out and setting: next, B3: greater than 10 µg/mL; B4: greater than 10 µg/mL; B5: greater than 10 µg/mL.
On the same count and under the same terms, with B6 the figure was greater than 10 µg/mL; with B7, greater than 10 µg/mL; with B8, greater than 10 µg/mL.
Same read-out and setting: with B9 the figure was greater than 10 µg/mL; with B10, greater than 10 µg/mL.
For B11, the “pseudovirus neutralization IC50” value is greater than 10 µg/mL.
Still for that read-out and setting: with B12 the figure was 1.12 µg/mL.

A further test has as its target SARS-CoV-2 Omicron BA.5 spike pseudovirus. The test is described as above. How it is done:
as §1
On to B1, for which the “pseudovirus neutralization IC50” value is 5.85 µg/mL.
As to B2, the “pseudovirus neutralization IC50” value was greater than 10 µg/mL.
The same measure, in the same setting: with B3 the figure was greater than 10 µg/mL; with B4, greater than 10 µg/mL.
Still for that read-out and setting: with B5 the figure was greater than 10 µg/mL; with B6, greater than 10 µg/mL.
Consider B7, for which the “pseudovirus neutralization IC50” value is greater than 10 µg/mL.
On the same count and under the same terms, with B8 the figure was greater than 10 µg/mL.
With B9, the “pseudovirus neutralization IC50” value was greater than 10 µg/mL.
Still for that read-out and setting: with B10 the figure was greater than 10 µg/mL; with B11, greater than 10 µg/mL; with B12, 1.33 µg/mL.

The target in a further test is SARS-CoV-2 Omicron BQ.1.1 spike pseudovirus. The description is as above. How it is done:
as §1
In the case of B1, the “pseudovirus neutralization IC50” value is greater than 10 µg/mL.
The same measure, in the same setting: next, B2: greater than 10 µg/mL.
The same measure, in the same setting: with B3 the figure was greater than 10 µg/mL; with B4, greater than 10 µg/mL.
Still for that read-out and setting: with B5 the figure was greater than 10 µg/mL.
B6: the “pseudovirus neutralization IC50” value is greater than 10 µg/mL.
Still for that read-out and setting: with B7 the figure was greater than 10 µg/mL; with B8, greater than 10 µg/mL; with B9, greater than 10 µg/mL.
For the molecule B10, the “pseudovirus neutralization IC50” value was greater than 10 µg/mL.
The same measure, in the same setting: with B11 the figure was greater than 10 µg/mL.
The same measure, in the same setting: next, B12: greater than 10 µg/mL.

Another test deals with SARS-CoV-2 Omicron XBB spike pseudovirus. The test is described as above. On the procedure: as §1
As for B1, the “pseudovirus neutralization IC50” value is greater than 10 µg/mL.
Same read-out and setting: with B2 the figure was greater than 10 µg/mL; with B3, greater than 10 µg/mL; with B4, greater than 10 µg/mL.
Same read-out and setting: with B5 the figure was greater than 10 µg/mL.
With B6, the “pseudovirus neutralization IC50” value is greater than 10 µg/mL.
On the same count and under the same terms, with B7 the figure was greater than 10 µg/mL; with B8, greater than 10 µg/mL; with B9, greater than 10 µg/mL.
The same measure, in the same setting: next, B10: greater than 10 µg/mL; B11: greater than 10 µg/mL.
Same read-out and setting: next, B12: 6.37 µg/mL.

Another test concerns the target SARS-CoV-2 early D614G spike pseudovirus. The description is as above. How it is done:
as §1
For B1, the “pseudovirus neutralization IC50” value came to 4.88 µg/mL.
On the same count and under the same terms, next, B2: greater than 10 µg/mL; B3: greater than 10 µg/mL.
On the same count and under the same terms, next, B4: greater than 10 µg/mL.
Still for that read-out and setting: with B5 the figure was greater than 10 µg/mL.
For B6, the “pseudovirus neutralization IC50” value came to 4.25 µg/mL.
Same read-out and setting: with B7 the figure was greater than 10 µg/mL; with B8, greater than 10 µg/mL.
On the same count and under the same terms, next, B9: 0.336 µg/mL.
The same measure, in the same setting: next, B10: 0.371 µg/mL; B11: greater than 10 µg/mL.
Consider B12, for which the “pseudovirus neutralization IC50” value was determined as 1.07 µg/mL.
